Experimental data from patent US20260216172A1, “COMPOUNDS AND METHOD FOR TREATING HIV INFECTION” (The United States of America, as represented by the …, priority 2023, published 2026).
Which two values form the index is not stated here.

System: HIV-1RF
Assay: Anti-HIV cytoprotection evaluation in CEM-SS cells (CPE inhibition, XTT)
Type: cell-based
Conditions: therapeutic index (TI50)
Experimental: (§1) (a) Anti-HIV Cytoprotection Evaluation: Inhibition of virus-induced cytopathic effects (CPE) and cell viability following HIV replication in CEM-SS cells were measured by the use of XTT tetrazolium dye. CEM-SS cells (2.5×10^3 cells per well) were seeded in 96-well U-bottomed tissue culture plates in RPMI medium supplemented with 10% FBS, 2 mM L-glutamine, 100 U/ml penicillin and 100 μg/ml streptomycin. Serially diluted compounds (6 concentrations) and HIV-1RF diluted to a pre-determined titer to yield 85 to 95% cell killing at 6 days post-infection were be added to the plate. AZT was evaluated in parallel as a positive control. Following incubation at 37° C., 5% CO2 for six days, cell viability was measured by XTT staining. The optical density of the cell culture plate will be determined spectrophotometrically at 450 and 650 nm using Softmax Pro 4.6 software. Percent CPE reduction of the virus-infected wells and the percent cell viability of uninfected drug control wells was calculated to define the EC50, TC50 and therapeutic index (TI50) using Microsoft Excel Xlfit4.
as §1, with “Inhibition” for “(a) Anti-HIV Cytoprotection Evaluation: Inhibition”, “by” for “by the use of”, “wells were” for “wells was”

In the case of `CCCC(=O)OCSc1ccccc1C(=O)NCCn1cc(C(=O)NCc2cccc(C)n2)c(=O)c2cc3c(cc21)OC(F)(F)O3` [Compound 17, ((2-((2-(2,2-difluoro-7-(((6-methylpyridin-2-yl)methyl)carbamoyl)-8-oxo-[1,3]dioxolo[4,5-g]quinolin-5(8H)-yl)ethyl)carbamoyl)phenyl)thio)methyl butyrate], the TI is reported as over 67.6.
With `CCCC(=O)OCSc1ccccc1C(=O)NCCn1ccc(=O)c2cc(F)ccc21` [Compound 1, ((2-((2-(6-fluoro-4-oxoquinolin-1(4H)-yl)ethyl)carbamoyl)phenyl)thio)methyl butyrate] the TI was 100.
`CCCC(=O)OCSc1ccccc1C(=O)NCCn1cc(C(=O)NCc2cccc(C)n2)c(=O)c2cc3c(cc21)OCO3` [Compound 4, ((2-((2-(7-(((6-methylpyridin-2-yl)methyl)carbamoyl)-8-oxo-[1,3]dioxolo[4,5-g]quinolin-5(8H)-yl)ethyl)carbamoyl)phenyl)thio)methyl butyrate] gave a TI of over 208.
Compound `CCCC(=O)OCSc1ccccc1C(=O)NCCn1cc(C(=O)NCc2ccccn2)c(=O)c2cc3c(cc21)OCO3` [Compound 5, ((2-((2-(8-oxo-7-((pyridin-2-ylmethyl)carbamoyl)-[1,3]dioxolo[4,5-g]quinolin-5(8H)-yl)ethyl)carbamoyl)phenyl)thio)methyl butyrate] has a TI of over 185.
Compound `CCCC(=O)OCSc1ccccc1C(=O)NCCn1ccc(=O)c2cc3c(cc21)OCO3` [Compound 2, ((2-((2-(8-oxo-[1,3]dioxolo[4,5-g]quinolin-5(8H)-yl)ethyl)carbamoyl)phenyl)thio)methyl butyrate] has a TI of 28.
